Pooled drug test results. Numbers come from NIAID ChemDB, via PubChem.

Common to all: tests in culture; organism: Herpes simplex virus 1; endpoint: EC50

Conditions beyond the fields shown may differ between rows. ECn is the concentration giving n% inhibition of infection, replication or growth.

c1c[nH]c(CNCc2cc(CNCc3ccc[nH]3)cc(CNCc3ccc[nH]3)c2)c1 ; strain or isolate: TK- KOS ACVr ; cells: Human embryonic lung fibroblasts ; read by: cytopathic effect ; result: >20 µM
CC(=O)Nc1ccc2c(C)ccnc2c1 ; cells: KB ; read by: plaque count ; result: 7 µg/mL
Nc1ccn(C(CF)CCCO)c(=O)n1 ; strain or isolate: KOS ; cells: ESM ; read by: cytopathic effect ; result: >400 µg/mL
OCCCOCc1c(Cl)nc2cc(Cl)c(Cl)cn12 ; strain or isolate: KOS ; cells: BSC-1 ; read by: ELISA ; result: >100 µM
CC(C)(C)NC(=O)CN(C(=O)[C@H]1CC[C@@]2(C)C3CC=C4C[C@@H](O)CC[C@]4(C)C3CC[C@]12C)c1ccccc1Cl ; strain or isolate: B2006 ; cells: Vero cells ; read by: plaque count ; result: 12.8 µM
c1cc(C23CC4CC(CC(C4)C2)C3)[nH]n1 ; strain or isolate: 1C ; cells: Chick embryo fibroblasts ; result: 8.29 µg/mL
Cc1cc(Cl)nc2cc(N)ccc12 ; cells: KB ; read by: plaque count ; result: 3 µg/mL
CC(C)(C)NC(=O)CN(C(=O)[C@H]1CC[C@@]2(C)C3CC=C4C[C@@H](O)CC[C@]4(C)C3CC[C@]12C)c1ccccc1 ; strain or isolate: KOS ; cells: Vero cells ; read by: plaque count ; result: 20 µM
C=C1CC2C[C@@H](OC(=O)c3ccccc3)[C@H]3[C@](C)(C(=O)O)CCC[C@]3(C)C23CCC1C3 ; strain or isolate: HF ; cells: HELA229 ; read by: plaque count ; result: 0.012 µg/mL
Cc1cc(N)nc2cc(N)ccc12 ; cells: KB ; read by: plaque count ; result: 7 µg/mL
Nc1nc2c(ncn2COCCO)c(=O)[nH]1 ; strain or isolate: S6434 (acyclovir-susceptible) ; cells: HFF ; read by: cytopathic effect ; result: 0.5 µg/mL
Nc1ncnc2c1ncn2CCCC(O)CF ; strain or isolate: KOS ; cells: ESM ; read by: cytopathic effect ; result: >400 µg/mL
O=c1[nH]c(=O)n([C@H]2C[C@H](O)[C@@H](CO)O2)cc1/C=C/Br ; strain or isolate: VR-3 ; cells: HELF ; read by: plaque count ; result: 0.017 µg/mL
[O-][n+]1onc2ncnc(N3CC[N+]4(CC3)CC[N+]3(CCN(c5ncnc6no[n+]([O-])c56)CC3)CC4)c21 ; strain or isolate: ANGPR ; cells: GMK ; read by: plaque count ; result: 9.8 µM
Cc1cn([C@@H]2O[C@H](CO)[C@@H](O)[C@@H]2O)c(=O)[nH]c1=O ; strain or isolate: VR-3 ; cells: HELF ; read by: cytopathic effect ; result: 0.66 µg/mL
O=C(NCc1ccc(Cl)cc1)c1c[nH]c2ccc(C#CCO)cc2c1=O ; strain or isolate: MAC ; read by: plaque count ; result: 18 µM
CCc1c(CN[C@@H]2CCCC[C@H]2N)c(CC)c2c(CC)c1CN[C@@H]1CCCC[C@H]1NCc1ccc([nH]1)CN[C@@H]1CCCC[C@H]1NC2 ; strain or isolate: TK- KOS ACVr ; cells: Human embryonic lung fibroblasts ; read by: cytopathic effect ; result: >20 µM
CC[C@@H](NC(=O)[C@@H](CC(=O)[C@@H](CC(=O)[C@@H](NC(=O)[C@H](C(C)C)N(C)C(=O)[C@H](C)CC1CCCCC1)C(C)(C)C)CC(=O)C(C)(C)C)C1(C(=O)O)CCCC1)C(C)(C)C ; strain or isolate: F ; cells: BHK-21/C13 ; read by: ELISA ; result: 0.35 µM
OC[C@H]1O[C@@H](n2c(Cl)nc3cc(Cl)c(Cl)cc32)[C@H](O)[C@@H]1O ; strain or isolate: KOS ; cells: BSC-1 ; read by: ELISA ; result: 102 µM
Nc1nc(=O)n([C@@H]2O[C@H](CO)[C@@H](O)[C@@H]2F)cc1I ; strain or isolate: CHR-3 ; cells: HELF ; read by: plaque count ; result: 0.015 µg/mL
COCc1cn([C@H]2C[C@H](O)[C@@H](CO)O2)c(=O)[nH]c1=O ; strain or isolate: Ara-A-resistant ; cells: RK-13 ; read by: plaque count ; result: 7 µM
O=c1[nH]c(=O)n([C@@H]2O[C@H](CO)[C@@H](O)[C@@H]2O)cc1/C=C/I ; strain or isolate: VR-3 ; cells: HELF ; read by: plaque count ; result: 0.014 µg/mL
Cc1cn(C(CF)CCCO)c(=O)[nH]c1=O ; strain or isolate: KOS ; cells: ESM ; read by: cytopathic effect ; result: >400 µg/mL
Clc1cc2nc(Cl)c(CSCc3ccccc3)n2cc1Cl ; strain or isolate: KOS ; cells: BSC-1 ; read by: ELISA ; result: >100 µM
Nc1ccn(CC(CO)OCP(=O)(O)O)c(=O)n1 ; strain or isolate: KOS ; cells: Human embryonic lung fibroblasts ; read by: cytopathic effect ; result: 2 µM
C/C=C/c1cn([C@H]2C[C@H](O)[C@@H](CO)O2)c(=O)[nH]c1=O ; strain or isolate: B2006 (TK-) ; cells: HELA BU ; read by: plaque count ; result: >10 µM
Nc1nc2c(ncn2COCCO)c(=O)[nH]1 ; strain or isolate: TK- KOS ACVr ; cells: Human embryonic lung fibroblasts ; read by: cytopathic effect ; result: 10 µM
Nc1ccc2ccc(N)nc2c1 ; cells: KB ; read by: plaque count ; result: 4 µg/mL
CCCc1cn([C@H]2C[C@H](O)[C@@H](CO)O2)c(=O)[nH]c1=O ; strain or isolate: KOS ; cells: HELA BU ; read by: plaque count ; result: <10 µM
Nc1nc2c(ncn2COC(CO)CO)c(=O)[nH]1 ; strain or isolate: KOS ; cells: BSC-1 ; read by: ELISA ; result: 3.5 µM
CN(C)c1ccc2ccc(N)nc2c1 ; cells: KB ; read by: plaque count ; result: 5 µg/mL
CCc1c(CN[C@@H]2CCCC[C@H]2NCc2ccc[nH]2)c(CC)c(CN[C@@H]2CCCC[C@H]2NCc2ccc[nH]2)c(CC)c1CN[C@@H]1CCCC[C@H]1NCc1ccc[nH]1 ; strain or isolate: KOS ; cells: Human embryonic lung fibroblasts ; read by: cytopathic effect ; result: >0.16 µM
O=C(NCc1ccc(Cl)cc1)c1cn2c3c(cc(CN4CCOCC4)cc3c1=O)OC(c1cccnc1)C2 ; strain or isolate: HL-34 ; cells: HFF ; read by: plaque count ; result: 7.5 µM
CCc1cc(CC)c(CNCc2ccc[nH]2)c(CC)c1CNCc1ccc[nH]1 ; strain or isolate: TK- KOS ACVr ; cells: Human embryonic lung fibroblasts ; read by: cytopathic effect ; result: >0.8 µM
Nc1nc2c(ncn2C[C@]2(CO)C[C@H]2CO)c(=O)[nH]1 ; strain or isolate: KOS ; cells: MRC-5 ; read by: plaque count ; result: 0.011 µg/mL
Cn1cc(C(=O)NCc2ccc(Cl)cc2)c(=O)c2cc(CN3CCOCC3)ccc21 ; strain or isolate: 4E ; cells: HFF ; read by: plaque count ; result: 2.8 µM
CCc1c(CN)c(CC)c(CN)c(CC)c1CN ; strain or isolate: KOS ; cells: Human embryonic lung fibroblasts ; read by: cytopathic effect ; result: >100 µM
Cc1cc(N(C)C)c2ccc(N(C)C)cc2n1 ; cells: KB ; read by: plaque count ; result: 2 µg/mL
CCc1c(CNCc2ccc[nH]2)c(CC)c(CNCc2ccc[nH]2)c(CC)c1CNCc1ccc[nH]1 ; strain or isolate: TK- KOS ACVr ; cells: Human embryonic lung fibroblasts ; read by: cytopathic effect ; result: >0.8 µM
CC(=O)Nc1ccc2c(C)cc(Cl)nc2c1 ; cells: KB ; read by: plaque count ; result: 4 µg/mL
O=c1[nH]c(=O)n([C@H]2C[C@H](O)[C@@H](CO)O2)cc1I ; strain or isolate: CHR-3 ; cells: HELF ; read by: plaque count ; result: 0.4 µg/mL

For reference, 3 entries again:

smiles | strain or isolate | cells | read by | result
CCc1c(CN[C@@H]2CCCC[C@H]2NCc2ccc[nH]2)c(CC)c(CN[C@@H]2CCCC[C@H]2NCc2ccc[nH]2)c(CC)c1CN[C@@H]1CCCC[C@H]1NCc1ccc[nH]1 | KOS | Human embryonic lung fibroblasts | cytopathic effect | >0.16 µM
CCCc1cn([C@H]2C[C@H](O)[C@@H](CO)O2)c(=O)[nH]c1=O | KOS | HELA BU | plaque count | <10 µM
O=c1[nH]c(=O)n([C@H]2C[C@H](O)[C@@H](CO)O2)cc1/C=C/Br | VR-3 | HELF | plaque count | 0.017 µg/mL